# PSTVd loop 6 mutant pool in Nicotiana benthamiana

Reference: Wu et al. 2024, doi:10.1371/journal.ppat.1012142.

PSTVd intermediate strain, loop 6: wild type UGACCGCGAG, pool pattern UNNNCGNNNG; upper and lower strand joined, each 5' to 3', the first 5 letters being the upper strand, closing pairs included.

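Three N. benthamiana plants were inoculated with the whole mutant pool. Progeny were sequenced from the inoculated region (day 5), the margin of the inoculated leaf (day 10) and systemic leaves (day 12).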

Numbers give reads per thousand; 0 = not seen among the reads, higher = more abundant.
Each value is the mean of three plants.
"Pool" is the share in the plasmid pool used as inoculum, on the same scale.
The inoculated region was read from the minus strand, the other sites from the plus strand.
IR is the inoculated region, LM the leaf margin, Sys the systemic leaves.
With 36,220-57,551 reads a sample, very low values are single reads.

For UAAGCGCUAG (pool 0.170) the result was IR 0.0831; LM 0.0155; Sys 0.
For UCCACGGACC (pool 0.0131) the result was IR 0; LM 0; Sys 0.
For UUUCCGUUGG (pool 0.248) the result was IR 0.0777; LM 0; Sys 0.
For UCGUCGCUCG (pool 0.222) the result was IR 0.0836; LM 0.00773; Sys 0.
For UUGACGACCG (pool 0.209) the result was IR 0.0726; LM 0.00773; Sys 0.
For UUUACGCGAG (pool 0.105) the result was IR 0.150; LM 0.122; Sys 0.0270.
For UUCACGCUGG (pool 0.222) the result was IR 0.107; LM 0; Sys 0.
For UAGACGCGGG (pool 0.261) the result was IR 0.138; LM 0; Sys 0.
For UCACCGCCUG (pool 0.157) the result was IR 0.119; LM 0.0401; Sys 0.
For UUAGCGCUAG (pool 0.170) the result was IR 0.0598; LM 0.0169; Sys 0.
For UGGCCGAAUG (pool 0.353) the result was IR 0.150; LM 0; Sys 0.
For UUUGCGAGGG (pool 0.196) the result was IR 0.0662; LM 0; Sys 0.
For UCGGCGGCGG (pool 0.288) the result was IR 0.101; LM 0.00773; Sys 0.
For UGAGCGGACG (pool 0.209) the result was IR 0.148; LM 0.00920; Sys 0.
For UCGUCGUGCG (pool 0.235) the result was IR 0.0720; LM 0.00773; Sys 0.
For UCCACGUGGG (pool 0.105) the result was IR 0.106; LM 0.0169; Sys 0.
For UGGACGAGAG (pool 0.275) the result was IR 0.728; LM 0.144; Sys 0.00684.
For UGUCCGGUAG (pool 0.261) the result was IR 0.0657; LM 0.00920; Sys 0.
For UACUCGGUAG (pool 0.222) the result was IR 0.0769; LM 0.00773; Sys 0.
For UUUGCGAUGG (pool 0.222) the result was IR 0.0706; LM 0; Sys 0.
For UGGGCACUCA (pool 0.0131) the result was IR 0; LM 0; Sys 0.
For UCUACGGAAG (pool 0.118) the result was IR 0.102; LM 0.0169; Sys 0.0135.
For UUAUCGCCAG (pool 0.275) the result was IR 0.120; LM 0; Sys 0.
For UCGUCGGGAG (pool 0.275) the result was IR 0.0950; LM 0.00773; Sys 0.
For UCCACGAAAG (pool 0.118) the result was IR 0.102; LM 0.00773; Sys 0.
For UCCCCGCUGG (pool 0.170) the result was IR 0.0891; LM 0.00920; Sys 0.
For UGACCGCUGG (pool 0.0915) the result was IR 0.0833; LM 0.210; Sys 0.00684.
For UUGGCGAGAG (pool 0.288) the result was IR 0.0893; LM 0.00920; Sys 0.
For UUUACGCACG (pool 0.131) the result was IR 0.0876; LM 0; Sys 0.
For UCCGCGUCAG (pool 0.275) the result was IR 0.0886; LM 0.00920; Sys 0.
For UACUCGAGCG (pool 0.222) the result was IR 0.107; LM 0; Sys 0.
For UCAGCGCCCG (pool 0.327) the result was IR 0.0894; LM 0.00773; Sys 0.
For UCCGCGGGUG (pool 0.235) the result was IR 0.0710; LM 0.00920; Sys 0.
For UGCGCGGAGG (pool 0.170) the result was IR 0.0947; LM 0.00773; Sys 0.
For UUAGCGGACG (pool 0.261) the result was IR 0.617; LM 0.0759; Sys 0.0398.

Extract of 4 entries:

{"sequence": "UUGACGACCG", "pool": "0.209", "IR": 0.0726, "LM": 0.00773, "Sys": 0}
{"sequence": "UUUACGCGAG", "pool": "0.105", "IR": 0.150, "LM": 0.122, "Sys": 0.0270}
{"sequence": "UUAGCGGACG", "pool": "0.261", "IR": 0.617, "LM": 0.0759, "Sys": 0.0398}
{"sequence": "UCCACGGACC", "pool": "0.0131", "IR": 0, "LM": 0, "Sys": 0}

For reference, wild type rose from 20.7 per thousand in the pool to 195, 198, 203 (inoculated region), 629, 591, 734 (leaf margin) and 942, 870, 868 (systemic leaves).
The authors trace changes outside the varied positions to PCR and sequencing errors or to mutation in the plant; presence does not show that a variant is infectious alone.